Results of unrelated studies side by side (data: NIAID ChemDB).

Shared fields: tests in culture

Conditions beyond the fields shown may differ between rows. Inhibition is in % at the dose shown (toxicity tests: loss of growth or viability). An empty or dashed field is not shown. ECn: concentration that inhibits the pathogen or its effect by n%. Zone: diameter of growth inhibition. a–b is a range or a potency band. MIC50, MIC90 and the like: level of inhibition, or share of isolates inhibited.

| structure | dose | species | measure | method | cells | strain | result |
|---|---|---|---|---|---|---|---|
| Nc1nc2c(ncn2COC(CO)CO)c(=O)[nH]1 | - | Vervet monkey cytomegalovirus | EC50 | plaque count | HET | CSG | 9 µM |
| O=C(Nc1ccc(F)c(Cl)c1)N1CCn2c(c3n(c2=O)CCCN(Cc2ccccc2)C3=O)C1 | - | Hepatitis B virus | EC50 | PCR | HepG2.2.15 | - | 0.1–0.5 µM |
| O=C(O)c1cc(S(=O)(=O)[O-])ccc1O | 10 µg/mL | Rhinovirus | inhibition | cytopathic effect | Human amnion AV3 cells | - | 0% |
| COc1c(CN(C)C)cccc1C1OC(c2ccncc2)=NN1C(C)=Nc1ccc(F)cc1 | - | Pseudomonas aeruginosa | MIC | - | - | MTCC 2453 | 6.25 µg/mL |
| COc1ccc(-n2c(-c3ccccn3)c3n(c2=O)CCN(C(=O)c2ccc(Br)c(Cl)c2)C3)cc1 | - | Hepatitis B virus | EC50 | PCR | HepG2.117 | - | >5 µM |
| COC(=O)c1ccc(NC(=S)Nc2ccc(S(=O)(=O)Nc3cc(C)on3)cc2)cc1 | - | SIV | EC50 | syncytia | CEM174 | - | 1.7 µM |
| Nc1c(S(=O)(=O)[O-])cc2cc(S(=O)(=O)[O-])ccc2c1O | 50 µg/mL | Adenovirus | inhibition | cytopathic effect | Human amnion AV3 cells | TYPE 3 | 40% |
| O=[N+]([O-])c1ccc(C=Nc2ccccc2O)cc1 | - | Cryptococcus gattii | MIC99 | - | - | L-28/02 | 16 µg/mL |
| CC(C)CC(N)C(=O)Nc1ccc(Cn2cnc3c(N)ncnc32)cc1 | - | Coronavirus | EC50 | plaque count | M-HELA | - | >50 µM |
| O=C(Nc1ccc(S(=O)(=O)[O-])c2cccc(S(=O)(=O)[O-])c12)c1ccccc1 | 50 µg/mL | Adenovirus | inhibition | cytopathic effect | Human amnion AV3 cells | TYPE 3 | 0% |
| Nc1ccn(C[C@@H](CO)OCP(=O)(O)O)c(=O)n1 | - | Varicella zoster virus | EC50 | cytopathic effect | HEL | Oka PMEA-resistant | 0.76 µM |
| CC(=O)Nc1ccc(N=Nc2c(C)[nH]n(C(=O)c3sc4ccc(Cl)cc4c3Cl)c2=O)cc1 | 40 µg/mL | Pseudomonas aeruginosa | zone | agar diffusion / agar | - | ATCC 27853 | 15 mm |
| CCCCOC(=O)c1ccc(NC(=S)Nc2ccc(S(=O)(=O)Nc3cc(C)on3)cc2)cc1 | - | SIV | EC50 | syncytia | CEM174 | - | 1.2 µM |
| O=C(NC(=S)Nc1cccc(Cl)c1)c1ccccc1COc1ccc(Cl)cc1 | - | Toxoplasma gondii | EC50 | - | Human foreskin fibroblasts (HFF) | RH beta-gal | 83 µM |
| CC(=O)N1N=C(c2sc3ccc(Cl)cc3c2Cl)OC1c1ccc(O)cc1 | 40 µg/mL | Pseudomonas aeruginosa | zone | agar diffusion / agar | - | ATCC 27853 | 12 mm |
| CCOC(=O)c1ccc(NC(=S)Nc2ccc(S(=O)(=O)Nc3cc(C)on3)cc2)cc1 | - | SIV | EC50 | syncytia | CEM174 | - | 5 µM |
| Oc1ccccc1N=Cc1ccc2c(c1)OCO2 | - | Cryptococcus neoformans | MIC99 | - | - | F-10 | 11.3 µg/mL |
| O=C(O)P(=O)(O)O | - | Varicella zoster virus | EC50 | cytopathic effect | HEL | Clinical isolate VZV-5 | 91.3 µM |
| C[C@@H](c1nc(-c2ccc(C#N)cc2)cs1)[C@](O)(Cn1cncn1)c1cc(F)ccc1F | - | Cryptococcus gattii | MIC90 | broth dilution | - | VG IIb | 0.25 µg/mL |
| COc1ccc(C2OC(c3sc4ccc(Cl)cc4c3Cl)=NN2C(C)=O)cc1OC | 40 µg/mL | Pseudomonas aeruginosa | zone | agar diffusion / agar | - | ATCC 27853 | 29 mm |
| CC(C)CC(NC(=O)Oc1ccccc1)C(=O)Nc1cccc(Cn2cnc3c(N(C)C)ncnc32)c1 | - | Coronavirus | EC50 | plaque count | M-HELA | - | >50 µM |
| C=CCc1ccc(OC)c(OC)c1 | - | Candida tropicalis | MIC90 | turbidity | - | 2467 | 350 µg/mL |
| Nc1ncnc2c1ncn2[C@H]1CC[C@H](O)[C@@H]1O | - | Measles virus | EC50 | neutral red | CV-1 | - | <0.1 µg/mL |
| Cc1cc(NS(=O)(=O)c2ccc(NC(=S)Nc3ccc(Br)cc3)cc2)no1 | - | SIV | EC50 | syncytia | CEM174 | - | 3.9 µM |
| O=C(NC(=S)Nc1c(Br)cccc1Br)c1ccccc1COc1ccc(Cl)cc1 | - | Toxoplasma gondii | EC50 | - | Human foreskin fibroblasts (HFF) | RH beta-gal | 100 µM |
| CC(C)Oc1ccc(-n2c(C(=O)NCc3ccccc3C(N)=O)c3n(c2=O)CCN(C(=O)c2ccc(Br)c(Cl)c2)C3)cc1 | - | Hepatitis B virus | EC50 | PCR | HepG2.117 | - | >5 µM |
| N#Cc1cc([N+](=O)[O-])ccc1Oc1ccc(Cl)c(Cl)c1 | 0.5 µg/mL | Coxsackie virus | inhibition | plaque count | VERO | TYPE B4 | 61.4% |
| O=c1[nH]c(=O)n([C@H]2C[C@H](O)[C@@H](CO)O2)cc1Br | 6.34 µg/mL | Murine polyoma virus | inhibition | hybridisation | ME | - | 85% |
| O=C(NC(=S)Nc1ccccc1)c1ccccc1COc1ccc(F)cc1 | - | Toxoplasma gondii | EC50 | - | Human foreskin fibroblasts (HFF) | RH beta-gal | 109 µM |
| O=C(Nc1cc(S(=O)(=O)[O-])cc2cc(S(=O)(=O)[O-])ccc12)c1ccccc1 | 50 µg/mL | Herpes simplex virus | inhibition | cytopathic effect | Human conjunctiva cells | - | 0% |
| Nc1ncnc2c1ncn2[C@@H]1C=C[C@@H](O)[C@H]1O | - | Measles virus | EC50 | cytopathic effect | CV-1 | X-1108 | >100 µg/mL |
| Cc1nc(NCCCCNc2ccnc3cc(Cl)ccc23)nc(-c2ccccc2[N+](=O)[O-])c1C(=O)OC(C)C | - | Cryptococcus neoformans | MIC99 | - | - | 27JF | 16 µg/mL |
| O=C(O)P(=O)(O)O | 400 µM | Cytomegalovirus | inhibition | hybridisation | HFF | AD169 | 96.1% |
| CN(C)c1cc(NC(=O)CNC(C)(C)C)c(O)c2c1C[C@H]1C[C@H]3[C@H](N(C)C)C(=O)C(C(N)=O)=C(O)[C@@]3(O)C(=O)C1=C2O | - | Enterococcus faecalis | MIC50 | - | - | 20 strains (vancomycin-susceptible) | 0.12 µg/mL |
| O=C(O)CP(=O)(O)O | - | Varicella zoster virus | EC50 | cytopathic effect | HEL | Oka BVaraU-resistant | 41.4 µM |
| O=S(=O)([O-])c1ccc(NS(=O)(=O)c2ccccc2)c2c(S(=O)(=O)[O-])cccc12 | 5 µg/mL | Adenovirus | inhibition | cytopathic effect | Human amnion AV3 cells | TYPE 3 | 10% |
| CCOC(=O)c1cc(C#N)c2[nH]c3ccccc3n2c1=O | - | Mumps virus | EC50 | plaque count | VERO | ECXH-3-11 | 100 µg/mL |
| Nc1ncnc2c1ncn2[C@@H]1CC[C@@H](O)[C@H]1O | - | Measles virus | EC50 | neutral red | CV-1 | Chicago | <0.1 µg/mL |
| COc1cc(C2OC(c3sc4ccc(Cl)cc4c3Cl)=NN2C(C)=O)ccc1O | 40 µg/mL | Pseudomonas aeruginosa | zone | agar diffusion / agar | - | ATCC 27853 | 20 mm |
| Cc1cc(NS(=O)(=O)c2ccc(NC(=S)Nc3ccccc3F)cc2)no1 | - | SIV | EC50 | syncytia | CEM174 | - | 8.9 µM |
| CC(N)C12CC3CC(CC(C3)C1)C2 | - | Influenza A virus | EC50 | ELISA | MDCK | Influenza A/Guizhou/54/89 (H3N2) | 0.018 µg/mL |
| CC[C@H]1OC(=O)[C@H](C)C(=O)[C@H](C)[C@@H](O[C@@H]2O[C@H](C)C[C@H](N(C)C)[C@H]2O)[C@](C)(OC)C[C@@H](C)C(=O)[C@H](C)[C@H]2N(CCCCn3cnc(-c4cccnc4)c3)C(=O)O[C@]12C | - | Streptococcus pneumoniae | MIC90 | - | - | 595 strains | ≤0.06 µg/mL |
| NCC(=O)Nc1cccc(Cn2cnc3c(N)ncnc32)c1 | - | Coronavirus | EC50 | plaque count | M-HELA | - | >50 µM |
| COc1ccc(-n2c(C(=O)NCc3cccc(C(N)=O)c3)c3n(c2=O)CCN(C(=O)c2ccc(Cl)c(Cl)c2)C3)cc1 | - | Hepatitis B virus | EC50 | PCR | HepG2.117 | - | >5 µM |
| N#Cc1cc(C#N)c2[nH]c3ccccc3n2c1=O | - | Respiratory syncytial virus | EC50 | plaque count | HEP-2 | LONG | 1 µg/mL |
| Cc1ccc(Cl)cc1N=Nc1c(C)[nH]n(C(=O)c2sc3ccc(Cl)cc3c2Cl)c1=O | 40 µg/mL | Pseudomonas aeruginosa | zone | agar diffusion / agar | - | ATCC 27853 | 14 mm |
| CCC(C)n1ncn(-c2ccc(N3CCN(c4ccc(OC[C@H]5CO[C@](Cn6cncn6)(c6ccc(Cl)cc6Cl)O5)cc4)CC3)cc2)c1=O | - | Cryptococcus neoformans | MIC | broth dilution | - | Clinical isolate (IM 972724) | 0.25 µg/mL |
| O=C(Nc1ccc2c(O)c(N=Nc3ccc(N=Nc4ccc(S(=O)(=O)O)cc4)cc3)c(S(=O)(=O)O)cc2c1)c1ccccc1 | 10 µg/mL | Rhinovirus | inhibition | cytopathic effect | Human amnion AV3 cells | - | 0% |
| Nc1nc2c(ncn2COC(CO)CO)c(=O)[nH]1 | - | Varicella zoster virus | EC50 | cytopathic effect | HEL | Oka PFA-resistant/B | 1.2 µM |
| CC[C@H]1OC(=O)[C@H](C)[C@@H](O[C@H]2C[C@@](C)(OC)[C@@H](O)[C@H](C)O2)[C@H](C)[C@@H](O[C@@H]2O[C@H](C)C[C@H](N(C)C)[C@H]2O)[C@](C)(O)C[C@@H](C)/C(=N\OCOCCOC)[C@H](C)[C@@H](O)[C@]1(C)O | - | Streptococcus pneumoniae | MIC90 | - | - | 595 strains | ≥64 µg/mL |
| Cc1[nH]n(C(=O)c2sc3ccc(Cl)cc3c2Cl)c(=O)c1N=Nc1ccc(F)cc1 | 40 µg/mL | Pseudomonas aeruginosa | zone | agar diffusion / agar | - | ATCC 27853 | 15 mm |
| COc1c(CN(C)C)cccc1C1OC(c2ccncc2)=NN1C(C)=Nc1ccccc1 | - | Pseudomonas aeruginosa | MIC | - | - | MTCC 2453 | 50 µg/mL |
| Cc1cc(NS(=O)(=O)c2ccc(NC(=S)Nc3ccc4c(c3)C(=O)OC4)cc2)no1 | - | SIV | EC50 | syncytia | CEM174 | - | 8.7 µM |
| CN(C)c1ncnc2c1ncn2Cc1ccccc1NC(=O)C(Cc1ccccc1)NC(=O)OCc1ccccc1 | - | Coronavirus | EC50 | plaque count | M-HELA | - | >50 µM |
| C[C@@H](c1ncncc1F)[C@](O)(Cn1cncn1)c1ccc(F)cc1F | - | Cryptococcus neoformans | MIC | broth dilution | - | ATCC 32264 | <0.015 µg/mL |
| O=S(=O)(O)c1ccc2cc(O)c(S(=O)(=O)O)cc2c1 | 50 µg/mL | Herpes simplex virus | inhibition | cytopathic effect | Human conjunctiva cells | - | 0% |
| CCNC(=O)[C@@H](NC(=O)Cc1ccccc1)[C@@H]1N[C@@H](C(=O)NCCNC(=O)[C@@H]2N[C@@H]([C@H](NC(=O)Cc3ccccc3)C(=O)NCC)SC2(C)C)C(C)(C)S1 | - | Streptococcus pneumoniae | MIC90 | - | - | 595 strains | 0.125 µg/mL |
| Oc1ccc(O)c(C=Nc2ccccc2O)c1 | - | Cryptococcus gattii | MIC99 | - | - | 196L/03 | 8 µg/mL |
| Nc1ncnc2c1ncn2[C@@H]1C[C@H](N)[C@@H](O)[C@H]1O | - | Measles virus | EC50 | cytopathic effect | CV-1 | TN1994 | 4 µg/mL |
| O=C(NCc1ccccc1-c1cnccn1)c1c2n(c(=O)n1-c1ccc(OCC(F)(F)F)cc1)CCN(C(=O)c1ccc(Br)c(Cl)c1)C2 | - | Hepatitis B virus | EC50 | PCR | HepG2.117 | - | <0.1 µM |
| O=C(NC(=S)Nc1c(Cl)cccc1Cl)c1ccccc1COc1ccc(F)cc1 | - | Toxoplasma gondii | EC50 | - | Human foreskin fibroblasts (HFF) | RH beta-gal | 53 µM |
| N#Cc1cc(NC(=O)c2ccccc2)c(=O)n2c1[nH]c1ccccc12 | - | Mumps virus | EC50 | plaque count | VERO | ECXH-3-11 | 0.6 µg/mL |
| O=C(NCc1ccccc1)c1c2n(c(=O)n1-c1ccc3[nH]c(C(F)(F)F)cc3c1)CCN(C(=O)c1ccc(Br)c(Cl)c1)C2 | - | Hepatitis B virus | EC50 | PCR | HepG2.117 | - | 0.5–5 µM |
| COc1ccc(NC(=S)NC(=O)c2ccccc2COc2ccc(Cl)cc2)cc1 | - | Toxoplasma gondii | EC50 | - | Human foreskin fibroblasts (HFF) | RH beta-gal | 116 µM |

7 of the rows above, restated:

structure	dose	species	measure	method	cells	strain	result
Nc1nc2c(ncn2COC(CO)CO)c(=O)[nH]1	-	Vervet monkey cytomegalovirus	EC50	plaque count	HET	CSG	9 µM
C[C@@H](c1nc(-c2ccc(C#N)cc2)cs1)[C@](O)(Cn1cncn1)c1cc(F)ccc1F	-	Cryptococcus gattii	MIC90	broth dilution	-	VG IIb	0.25 µg/mL
Nc1nc2c(ncn2COC(CO)CO)c(=O)[nH]1	-	Varicella zoster virus	EC50	cytopathic effect	HEL	Oka PFA-resistant/B	1.2 µM
O=c1[nH]c(=O)n([C@H]2C[C@H](O)[C@@H](CO)O2)cc1Br	6.34 µg/mL	Murine polyoma virus	inhibition	hybridisation	ME	-	85%
COc1c(CN(C)C)cccc1C1OC(c2ccncc2)=NN1C(C)=Nc1ccc(F)cc1	-	Pseudomonas aeruginosa	MIC	-	-	MTCC 2453	6.25 µg/mL
O=C(Nc1cc(S(=O)(=O)[O-])cc2cc(S(=O)(=O)[O-])ccc12)c1ccccc1	50 µg/mL	Herpes simplex virus	inhibition	cytopathic effect	Human conjunctiva cells	-	0%
COC(=O)c1ccc(NC(=S)Nc2ccc(S(=O)(=O)Nc3cc(C)on3)cc2)cc1	-	SIV	EC50	syncytia	CEM174	-	1.7 µM